Anti-infective test results gathered from many reports (values: NIAID ChemDB through PubChem).

All rows: whole-cell or culture tests; species: HIV-1

ECn: concentration that inhibits the pathogen or its effect by n%. An empty or dashed field is not shown. Neighbouring rows are from separate reports.

compound	mutations	cell line	method	strain or isolate	measure	conditions	result
CC(C)Nc1cccnc1N1CCN(C(=O)c2cc3cc(NS(C)(=O)=O)ccc3[nH]2)CC1		MT-4	MTT	IIIB	EC50		0.032 µM
Nc1nc2c(ncn2[C@H]2CO[C@@H](CO)O2)c(=O)[nH]1		MT-4		IIIB	EC50		0.05 µM
Nc1ncnc2c1ncn2[C@H]1C=C(F)[C@@H](CO)O1		H9	p24 / ELISA	IIIB	EC50		1 µg/mL
O=c1[nH]cnc2c1ncn2[C@H]1CC[C@@H](CO)O1		MT-2	p24	LAI	EC50		2 µM
O=C(Cc1ccc(CNCCCN2CCOCC2)cc1)NCCCN1CCOCC1		MT-4	MTT		EC50		>59.73 µM
Nc1nc2c(ncn2[C@H]2CC[C@@H](CO)O2)c(=O)[nH]1	RT-L100I E138K	CEM	syncytia	IIIB TIBO R82913 STR-B02 (RT L100I E138K)	EC50		0.7 µM
COC(=O)[C@H](Cc1ccc(O)cc1)NC(=O)COc1ccc2ccccc2c1		MT-4	cytopathic effect / MTT	IIIB	EC50		>65 µg/mL
Cc1cccc(C)c1OCC(=O)N[C@@H](Cc1ccccc1)[C@@H](O)C[C@H](Cc1ccccc1)NC(=O)[C@H](C(C)C)N1CCCNC1=O		MT-2	MTT	LAI	EC50		0.027 µM
Cc1cn([C@H]2C[C@H](N=[N+]=[N-])[C@@H](COP(=O)(O)OC[C@H]3OC(O)[C@H](O)[C@@H](O)[C@@H]3O)O2)c(=O)[nH]c1=O		CEM	RT activity	LAV-Bru	EC50	26 d	<5 µM
CSCC[C@H](NC(=O)COc1ccc2ccccc2c1)C(=O)NN		MT-4	cytopathic effect / MTT	IIIB	EC50		>100 µg/mL
Cc1cn([C@@H]2C=C[C@H](COC(=O)NCCCCNC(=O)OC[C@H]3O[C@@H](n4cc(C)c(=O)[nH]c4=O)C[C@@H]3N=[N+]=[N-])O2)c(=O)[nH]c1=O		MT-4	cytopathic effect / MTT	IIIB	EC50		96.3 µM
CC(C)=CCN1Cc2cc(Cl)cc3[nH]c(=S)n(c23)C[C@@H]1C	RT-L100I Y188H	CEM	syncytia	IIIB TIBO R82913 STR-B22 (RT L100I Y188H)	EC50		>5 µM
CC(C)CN(C[C@@H](O)[C@H](Cc1ccccc1)NC(=O)O[C@H]1CCOC1)S(=O)(=O)c1ccc(N)cc1		C8166	ELISA	IIIB	EC50		0.007 µM
Nc1ccn([C@@H]2O[C@H](CO)C=C2F)c(=O)n1		H9	p24 / ELISA	IIIB	EC50		0.5 µg/mL
CC(C)=CCN1c2cc(Cl)cc3[nH]c(=S)n(c23)C[C@@H]1C	RT-K70R K101E	MT-4			EC95		1.5 µM
CCCCCCCCCCCCCCCCOP(=O)(OC[C@H]1OC(O)[C@H](O)[C@@H](O)[C@@H]1O)OC[C@H]1O[C@@H](n2cc(C)c(=O)[nH]c2=O)C[C@@H]1N=[N+]=[N-]		CEM	RT activity	LAV-Bru	EC50	15 d	<0.2 µM
COC(=O)[C@H](C)NP(=O)(OCC1C/C1=C/n1cnc2c(N)ncnc21)Oc1ccccc1		PBMC	p24	ERS104pre	EC50		0.013 µM
C=C(/C=C/P(=O)(O)O)Cn1cnc2c(=O)[nH]c(N)nc21		MT-4	cytopathic effect / MTT	RF	EC50		>100 µM
Cc1cn([C@H]2C[C@H](F)[C@@H](CO)O2)c(=O)[nH]c1=O		H9	p24 / ELISA	IIIB	EC50		0.01 µM
C=C(C)[C@@H]1CC[C@]2(C(=O)OC)CC[C@]3(C)C(CC[C@@H]4[C@@]5(C)C[C@@H](F)[C@H](OC(=O)CC(C)(C)C(=O)O)C(C)(C)[C@@H]5CC[C@]43C)[C@@H]12		MT-4	p24 / ELISA	NL4-3	EC50		>16 µM
C=COC(=O)OC[C@H]1O[C@@H](n2cc(C)c(=O)[nH]c2=O)C[C@@H]1N=[N+]=[N-]		MT-4	cytopathic effect / MTT	IIIB	EC50		0.009 µM
Nc1nc(N)c2ncn([C@H]3CC[C@@H](CO)O3)c2n1		MT-4		IIIB	EC50		14 µM
O=C(CSc1nncnc1-c1ccccc1Cl)Nc1ccccc1[N+](=O)[O-]		MT-4	MTT	IIIB	EC50		0.023 µM
CCOC(=O)c1cn([C@@H]2O[C@H](CO[Si](C)(C)C(C)(C)C)C3(OS(=O)(=O)C=C3N)[C@H]2O[Si](C)(C)C(C)(C)C)nn1		MM + M/M	p24	BaL	EC50		<3.3 µM
NNC(=O)[C@H](CO)NC(=O)COc1ccc2ccccc2c1		MT-4	cytopathic effect / MTT	IIIB	EC50		>100 µg/mL
COc1ccc(S(=O)(=O)N(CC(C)C)C[C@@H](O)[C@H](Cc2ccc(F)cc2)NC(=O)O[C@H]2CCO[C@H]3OCC[C@H]32)cc1		MT-2	MTT	LAI	EC50		0.0009 µM
Nc1ncnc2c1ncn2CC(CF)OCP(=O)(O)O		CEM	syncytia	IIIB	EC50		3 µM
CNC(C)[C@H]1O[C@H](O[C@@H]2[C@@H](O)[C@H](O[C@@H]3OC[C@@](C)(O)[C@@H](NC)[C@@H]3O)[C@@H](NC(=O)[C@@H](N)CCCN=C(N)N)C[C@H]2NC(=O)[C@@H](N)CCCN=C(N)N)[C@H](NC(=O)[C@@H](N)CCCN=C(N)N)[C@@H](O)[C@@H]1O		MT-4	cytopathic effect / MTT	AMD3100-resistant	EC50		>133 µM
c1cc(CN2CCCNCCNCCCNCC2)ccc1CN1CCCNCCNCCCNCC1		PBMC	p24	92US714 CLADE B R5	EC50		>0.5 µM
COc1ccc2nc3cc(Cl)ccc3c(NCCCN3CCOCC3)c2c1		MT-4	MTT		EC50		>1.9 µM
CC(C)(C)NC(=O)[C@@H]1C[C@@H]2CCCC[C@@H]2CN1C[C@@H](O)[C@H](Cc1ccccc1)NC(=O)[C@H](CC(N)=O)NC(=O)c1ccc2ccccc2n1		HuT-78 + HUT 78	RT activity	MVP-5190	EC50		<0.02 µM
Cc1cn([C@H]2C[C@H](N=[N+]=[N-])[C@@H](CO)O2)c(=O)[nH]c1=O		MT-4	MTT	RES056	EC50		0.009 µM
Cc1cn([C@H]2C[C@H](N=[N+]=[N-])[C@@H](CO)O2)c(=O)[nH]c1=O		MT-4	cytopathic effect / MTT	NL4-3	EC50		0.01 µM
CCCCC/C=C\C/C=C\C/C=C\C/C=C\CCCC(=O)NCCc1ccc(O)c(O)c1		Jurkat cells	luciferase	NL4-3-Luc VSV pseudotyped	EC50		1 µM
CCCCN1C(=O)[C@@H]([C@H](O)C2CCCCC2)NC(=O)C12CCN(Cc1ccc(Oc3ccc(C(=O)O)cc3)cc1)CC2		PBMC	p24 / ELISA	CC1/85 maraviroc-resistant isolate	EC50		0.3243 µM
O=c1[nH]cnc2c1ncn2[C@H]1CC[C@@H](CO)O1		CEM + CEM-SS	cytopathic effect	IIIB	EC50		4.3 µM
CCCCC/C=C\C/C=C\C/C=C\C/C=C\CCCC(=O)C(F)(F)F		Jurkat cells	luciferase	NL4-3-Luc VSV pseudotyped	EC50		~5 µM
COC(=O)[C@H](CO)NC(=O)COc1ccc2ccccc2c1		MT-4	cytopathic effect / MTT	IIIB	EC50		>100 µg/mL
Cc1cc(NC(=O)Cc2ccc3ccccc3c2)ccc1N1C(=O)c2ccc(Cl)cc2C1=O		MT-4	MTT / absorbance	IIIB	EC50		0.02 µM
Nc1ncnc2c1ncn2[C@H]1CC[C@@H](CO)O1		MT-4	cytopathic effect	IIIB	EC50		10 µM
CC(C)(C)[Si](C)(C)OC[C@H]1O[C@@H](n2cc(CBr)nn2)[C@H](O[Si](C)(C)C(C)(C)C)C12OS(=O)(=O)C=C2N		CEM	syncytia	IIIB	EC50		1.3 µM
Cc1ccc(NC(=O)CSc2nncnc2-c2ccccc2Cl)c([N+](=O)[O-])c1		MT-4	MTT	IIIB	EC50		0.048 µM
Cc1cn([C@H]2C[C@H](N=[N+]=[N-])[C@@H](CO)O2)c(=O)[nH]c1=O	RT-L100I	CEM	syncytia	IIIB TIBO R82150-resistant (RT L100I)	EC50		0.003 µM
CN(C)C(=O)c1cnnn1[C@@H]1O[C@H](CO[Si](C)(C)C(C)(C)C)C2(OS(=O)(=O)C=C2N)[C@H]1O[Si](C)(C)C(C)(C)C		CEM	p24	HE	EC50		0.32 µM
CC(C)=CCN1Cc2cc(Cl)cc3[nH]c(=S)n(c23)C[C@@H]1C		CEM + CEM-SS	cytopathic effect / MTT	McK	EC50		0.064 µM
Cc1cn([C@H]2C=C[C@@H](CO)O2)c(=O)[nH]c1=O		MT-4	cytopathic effect / MTT	IIIB	EC50		0.27 µM
Nc1ccn([C@H]2CC[C@@H](CO)O2)c(=O)n1		PBMC	p24 / ELISA / antigen		EC50		0.0876 µM
COC(=O)[C@H](C)NP(=O)(OC[C@H]1C/C1=C\n1cnc2c(N)nc(N)nc21)Oc1ccccc1		MT-2	cytopathic effect / MTT	LAI	EC50		5.3 µM
Nc1ncnc2c1ncn2[C@H]1C=C[C@@H](CO)O1		MOLT-4/C8 + MOLT-4	syncytia	IIIB	EC50		30 µM
CC(C)c1nc(CN(C)C(=O)N[C@H](C(=O)N[C@@H](Cc2ccccc2)C[C@H](O)[C@H](Cc2ccccc2)NC(=O)OCc2cncs2)C(C)C)cs1		MT-4	p24	NL4-3	EC50		0.03 µM
COC(=O)[C@@H](NC(=O)COc1ccc2ccccc2c1)C(C)C		MT-4	cytopathic effect / MTT	IIIB	EC50		>42 µg/mL
CC(C)(C)[Si](C)(C)OC[C@H]1O[C@@H](n2nncc2CBr)[C@H](O[Si](C)(C)C(C)(C)C)C12OS(=O)(=O)C=C2N		CEM	syncytia	IIIB	EC50		1.3 µM
COc1ccc2nc3cc(Cl)ccc3c(NC[C@@H]3CCCN4CCCC[C@H]34)c2c1		MT-4	MTT		EC50		>0.5 µM
COC(=O)[C@H](CCSC)NC(=O)COc1ccc2ccccc2c1		MT-4	cytopathic effect / MTT	IIIB	EC50		>100 µg/mL
Nc1ncnc2c1ncn2CCOCP(=O)(O)O		MT-4	cytopathic effect / MTT	RF	EC50		20 µM
Cc1cc(NC(=O)c2ccccc2)ccc1N1C(=O)c2ccc(Cl)cc2C1=O		MT-4	MTT / absorbance	IIIB	EC50		0.161 µM
CCCc1cn([C@@H]2O[C@H](CO[Si](C)(C)C(C)(C)C)C3(OS(=O)(=O)C=C3N)[C@H]2O[Si](C)(C)C(C)(C)C)nn1		CEM	p24	HE	EC50		1.7 µM
CC1CCCCN1CCCNCc1ccc(CC(=O)NCCCN2CCCCC2)cc1		MT-4	MTT		EC50		1.39 µM
CC(C)CN(C[C@@H](O)[C@H](Cc1ccccc1)NC(=O)O[C@H]1CCOC1)S(=O)(=O)c1ccc(N)cc1		MT-2	MTT	LAI	EC50		0.028 µM
CCNC(=O)[C@@H](NC(=O)Cc1ccccc1)[C@@H]1N[C@@H](C(=O)NCCNC(=O)[C@@H]2N[C@@H]([C@H](NC(=O)Cc3ccccc3)C(=O)NCC)SC2(C)C)C(C)(C)S1		H9	p24	IIIB	EC50		0.42 µM
O=C(OC[C@H]1O[C@@H](OC(=O)c2cc(O)c(O)c(O)c2)[C@H](O)[C@@H](OC(=O)c2cc(O)c(O)c(O)c2)[C@@H]1O)c1cc(O)c(O)c(O)c1		MOLT-3	syncytia	IIIB	EC50		<33 µg/mL
O=C(O)/C=C(\CC(=O)O)C(=O)O		MT-4	cytopathic effect / MTT	IIIB	EC50		>25 µM
Fc1cccc(F)c1C1SCc2nc3ccccc3n21	RT-E138K		cytopathic effect / MTT	IIIB	EC50		1.73 µM
Cc1cn([C@H]2C[C@H](N=[N+]=[N-])[C@@H](CO)O2)c(=O)[nH]c1=O		CEM	RT activity	LAV-Bru	EC50	15 d	<0.2 µM
CCCCC/C=C\C/C=C\C/C=C\C/C=C\CCCCOC(CO)CO		Jurkat cells	luciferase	NL4-3-Luc VSV pseudotyped	EC50		>10 µM
Cc1cn([C@@H]2C[C@@H](N=[N+]=[N-])[C@H](COC(=O)NCCCCNC(=O)OC[C@H]3O[C@@H](n4cc(C)c(=O)[nH]c4=O)C[C@@H]3N=[N+]=[N-])O2)c(=O)[nH]c1=O		MT-4	cytopathic effect / MTT	IIIB	EC50		2.84 µM
CC1CCCCN1CCCNC(=O)Cc1ccc(CC(=O)NCCCN2CCCCC2C)cc1		MT-4	MTT		EC50		144 µM
CCCCCCCCCCCCCCCC(=O)Nc1ncnc2c1ncn2[C@@H]1O[C@H](CO)[C@@H](F)[C@H]1O		H9	p24 / ELISA	IIIB	EC50		1 µg/mL
COc1ccc2nc3cc(Cl)ccc3c(NCCCCCO)c2c1		MT-4	MTT		EC50		>2 µM
COC(=O)[C@H](C)NP(=O)(OC[C@H]1C/C1=C\n1cnc2c(=O)[nH]c(N)nc21)Oc1ccccc1		MT-2	cytopathic effect / MTT	LAI	EC50		>100 µM
Cc1ccc(C(=S)Nc2ccc(N3C(=O)c4ccc(Cl)cc4C3=O)c(C)c2)cc1		MT-4	MTT / absorbance	IIIB	EC50		0.083 µM
O=c1[nH]cnc2c1ncn2[C@H]1CC[C@@H](CO)O1		PBL	p24	MN	EC50		0.38 µM
CN1CCN(CCCNCc2ccc(CNCCCN3CCN(C)CC3)cc2)CC1		MT-4	MTT		EC50		22.8 µM
Nc1nc(NC2CC2)c2ncn([C@H]3C=C[C@@H](CO)C3)c2n1		PBMC	p24	Clinical isolates	EC50		0.393 µM
Nc1ncnc2c1ncn2[C@H]1CC[C@@H](CO)O1		PBL	p24	IIIB	EC50		0.24 µM
O=C(Cc1ccc(CC(=O)NCCN2CCCC2)cc1)NCCN1CCCC1		MT-4	MTT		EC50		10.87 µM